{"source": "BindingDB's records for doi:10.1021/jm001024j", "about": "(Uppsala University, 2001)", "target": "T1, Dimer of Gag-Pol polyprotein [489-587] (Human immunodeficiency virus 1, UniProt P12497)", "T1 construct": "489-587", "assay": "Protease Inhibition Assay", "conditions": "pH 5; 30 °C", "data": [{"molecule": "CNC(=O)c1cccc(CN2[C@H](COc3ccccc3)[C@H](O)[C@@H](O)[C@@H](COc3ccccc3)N(Cc3ccccc3)S2(=O)=O)c1", "note": "[3-{[(3R,4S,5S,6R)-7-benzyl-4,5-dihydroxy-1,1-dioxo-3,6-bis(phenoxymethyl)-1,2,7-thiadiazepan-2-yl]methyl}-N-methylbenzamide]", "values": [{"measurement": "Ki", "value": 11, "unit": "nM"}]}]}
